Results of unrelated studies side by side (data: NIAID ChemDB).

All rows: whole-cell or culture tests; species: Aspergillus fumigatus

Rows are shuffled and stem from different studies. ECn: concentration that inhibits the pathogen or its effect by n%. A number after MIC or MFC names an inhibition level or a share of isolates. Blank or dashed fields: not listed here.

structure | strain or isolate | endpoint | read by | value
OC(Cn1cncn1)(c1ccc(F)cc1F)C(F)(F)c1ncccn1 | IFM 40808 | MIC |  | >8 µg/mL
Nc1scc2c1c(=O)oc1ccccc12 |  | MIC | broth dilution | 16 µg/mL
COC(=O)N[C@H](C(=O)NN(CC[C@]1(Cc2ccccc2)C(=O)N(C2c3ccccc3C[C@H]2O)C[C@H]1O)Cc1ccc(Br)cc1)C(C)(C)C | RCMB 002003 | MIC | agar | 7.8 µg/mL
Cc1ccccc1OCc1n[nH]c(=S)n1N1C(=O)CSC12CCc1ccccc12 |  | MIC100 |  | 12.5 µg/mL
O=C(NCc1ccc(Cl)cc1)c1ccccc1O | 231 | Geometric mean MIC |  | 343.8 µM
CC(/C=C/C=C(\C)C(O)C(C)C(=O)O[C@H]1C[C@@H](C)C=C2C=C[C@]3(C)O[C@@H](O)CC(=O)[C@]3(C)[C@H]21)=C\C=C\C(=O)O | AC3447 | MIC |  | 50 µg/mL
Clc1ccc(COC(Cn2ccnc2)c2ccc(Cl)cc2Cl)c(Cl)c1 | 2 strains | Mean MIC |  | 2.83 µg/mL
CC[C@@H]([C@H](C)O)n1ncn(-c2ccc(N3CCN(c4ccc(OC[C@@H]5CO[C@@](Cn6cncn6)(c6ccc(F)cc6F)C5)cc4)CC3)cc2)c1=O | 17 isolates | MIC50 |  | ≤0.002 µg/mL
COc1ccc(-n2nc(C(=O)c3cc(C(C)=O)nn3-c3ccccc3)sc2=NC(=O)c2ccccc2)cc1 | 002003 | MIC |  | 125 µg/mL
Oc1ccc(C(=S)Nc2cccc(F)c2)c(O)c1 |  | MIC |  | 31.25 µg/mL
CCCCCCCCCCCCC(C)(O)C1CC(=O)NC(CO)C(=O)N[C@H](C)C(=O)NC(CC(=O)O)C(=O)NC(CC(N)=O)C(=O)NC(CC(N)=O)C(=O)NC(CO)C(=O)NC([C@@H](C)O)C(=O)O1 | TIMM0070 | MIC |  | 16 µg/mL
C[C@@H](n1cc2cc(F)ccc2n1)[C@](O)(Cn1cncn1)c1ccc(F)cc1F | ATCC 16424 | MIC80 |  | 0.25 µg/mL
COC(=O)N[C@H](C(=O)NN(CC[C@@]1(Cc2ccccc2)C(=O)N(C2c3ccccc3C[C@H]2O)C[C@H]1O)Cc1ccc(Br)cc1)C(C)(C)C | RCMB 002003 | MIC | agar | 7.8 µg/mL
OC(Cn1cncn1)(c1ccc(F)cc1F)C(F)(F)c1ccccn1 | IFM 40808 | MIC |  | 1 µg/mL
C=C1/C=C(\C)[C@H](CC)OC(=O)[C@H](C)C(=O)C(O)(CO)C/C(OC)=C/[C@@H](C)C1 | MF5668 | MIC |  | >200 µg/mL
COC(=O)N[C@H](C(=O)NN(CC[C@@]1(Cc2ccccc2)C(=O)N(C2c3ccccc3C[C@H]2O)C[C@H]1O)Cc1ccc(-c2ccccn2)cc1)C(C)(C)C | RCMB 002003 | MIC | agar | 7.8 µg/mL
CC1C=C(c2ccc(Cl)c(Cl)c2)C(=O)O1 | 231 | MIC |  | >62.5 µM
Cc1ccc(F)cc1NC(=S)c1ccc(O)cc1O |  | MIC |  | 125 µg/mL
O=C(N=c1sc(-c2ccnc3nc4ccccc4n23)nn1-c1ccc(Cl)cc1)c1ccccc1 | 002003 | MIC |  | 125 µg/mL
Cc1noc(C)c1C(F)(F)C(O)(Cn1cncn1)c1ccc(F)cc1F | IFM 40808 | MIC |  | >8 µg/mL
COC(=O)N[C@H](C(=O)NN(CC[C@@]1(Cc2ccccc2)C(=O)N(C2c3ccccc3C[C@H]2O)C[C@@H]1O)Cc1ccc(-c2cccnc2)cc1)C(C)(C)C | RCMB 002003 | MIC | agar | 7.8 µg/mL
O=C1CSC2(CCc3ccccc32)N1n1c(-c2cccnc2)n[nH]c1=S |  | MIC100 |  | 12.5 µg/mL
COC(=O)N[C@H](C(=O)NN(CCC[C@@]1(Cc2ccccc2)C(=O)N(C2c3ccccc3C[C@H]2O)C[C@H]1O)Cc1ccc(-c2ccccn2)cc1)C(C)(C)C | RCMB 002003 | MIC | agar | 15.6 µg/mL
NN(Cc1ccccc1)CC(O)(Cn1cncn1)c1ccc(F)cc1F | ATCC 16424 | MIC80 |  | 2 µg/mL
COC(=O)N[C@H](C(=O)NN(CCC[C@@]1(Cc2ccccc2)C(=O)N(C2c3ccccc3C[C@H]2O)C[C@H]1O)Cc1ccc(Br)cc1)C(C)(C)C | RCMB 002003 | MIC | agar | 7.8 µg/mL
CC1C=C(c2ccc(F)cc2)C(=O)O1 | 231 | MIC |  | >125 µM
O=[N+]([O-])c1ccc(C(F)(F)C(O)(Cn2cncn2)c2ccc(F)cc2F)o1 | IFM 40808 | MIC |  | >8 µg/mL
C[C@@H](n1cc2cc(Br)ccc2n1)[C@](O)(Cn1cncn1)c1ccc(F)cc1F | ATCC 16424 | MIC80 |  | 0.25 µg/mL
O=C1CSC2(CCc3ccccc32)N1n1c(COc2ccc(Cl)cc2)n[nH]c1=S |  | MIC100 |  | 25 µg/mL
Cc1ccc(C(C)C)c(O)c1 | CECT2071 | MLC |  | 0.64 µg/mL
O/N=C/c1cc[n+](Cc2cc(C[n+]3ccc(/C=N/O)cc3)on2)cc1.[Br-].[Br-] |  | EC50 | broth dilution | >20 µg/mL
C[C@H]1[C@H](O)[C@@H](C)/C=C/C=C/C=C/C=C/C=C/C=C/C=C/[C@H](O[C@@H]2O[C@H](C)[C@@H](O)[C@H](N)[C@@H]2O)C[C@@H]2O[C@](O)(C[C@@H](O)C[C@@H](O)CC[C@H](O)[C@@H](O)C[C@@H](O)CC(=O)O[C@H]1C)C[C@H](O)[C@H]2C(=O)O | NCIM 902 | MIC99 | broth dilution / absorbance | 0.39 µM
CC1CC(c2ccncc2)Nc2ccc(Br)cc21 | ATCC 26934 | MIC100 |  | >250 µg/mL
COC(=O)N[C@H](C(=O)NN(CC[C@@]1(Cc2ccccc2)C(=O)N(C2c3ccccc3C[C@H]2O)C[C@@H]1O)Cc1ccc(Br)cc1)C(C)(C)C | RCMB 002003 | MIC | agar | 7.8 µg/mL
CC1C=C(c2ccc(Br)c3ccccc23)C(=O)O1 | 231 | MIC |  | >125 µM
O=[N+]([O-])c1ccc(NC(=S)c2ccc(O)cc2O)c(O)c1 |  | MIC |  | 500 µg/mL
CC1C=C(c2ccc(Cl)cc2Cl)C(=O)O1 | 231 | MIC |  | >125 µM
NC(=O)c1cc[n+](CCCC[n+]2ccccc2/C=N/O)cc1.[Br-].[Br-] |  | EC50 | broth dilution | >20 µg/mL
CCCCCC1C=C(c2cccc(Cl)c2)C(=O)O1 | 231 | MIC |  | 31.25 µM
O=C1CSC2(CCc3ccccc32)N1n1c(-c2ccc(Cl)cc2)n[nH]c1=S |  | MIC100 |  | 12.5 µg/mL
N#Cc1ccc(NC(=S)c2ccc(O)cc2O)cc1 |  | MIC |  | >250 µg/mL
C[C@H]1[C@H](O)[C@@H](C)/C=C/C=C/C=C/C=C/C=C/C=C/C=C/[C@H](O[C@@H]2O[C@H](C)[C@@H](O)[C@H](N)[C@@H]2O)C[C@@H]2O[C@](O)(C[C@@H](O)C[C@@H](O)CC[C@H](O)[C@@H](O)C[C@@H](O)CC(=O)O[C@H]1C)C[C@H](O)[C@H]2C(=O)O | 12 isolates | MIC90 |  | 0.25 µg/mL
CCC(C)c1ccc(NC(=S)c2ccc(O)cc2O)cc1 |  | MIC |  | 125 µg/mL
CCCCCC1C=C(c2ccc(Br)cc2)C(=O)O1 | 231 | MIC |  | 62.5 µM
Oc1ccc(C(=S)Nc2ccccc2Cl)c(O)c1 |  | MIC |  | 62.5 µg/mL
NC(=O)c1cc[n+](CCC[n+]2cccc(/C=N/O)c2)cc1.[Br-].[Br-] |  | EC50 | broth dilution | >20 µg/mL
CC(=O)c1cc(C(=O)c2nn(-c3ccc(Cl)cc3)c(=NC(=O)c3ccccc3)s2)n(-c2ccccc2)n1 | 002003 | MIC |  | 31.3 µg/mL
Oc1ccc(C(=S)Nc2ccc(Cl)cc2)c(O)c1 |  | MIC |  | 62.5 µg/mL

The first 3 rows once more:

| structure | strain or isolate | endpoint | read by | value |
|---|---|---|---|---|
| OC(Cn1cncn1)(c1ccc(F)cc1F)C(F)(F)c1ncccn1 | IFM 40808 | MIC |  | >8 µg/mL |
| Nc1scc2c1c(=O)oc1ccccc12 |  | MIC | broth dilution | 16 µg/mL |
| COC(=O)N[C@H](C(=O)NN(CC[C@]1(Cc2ccccc2)C(=O)N(C2c3ccccc3C[C@H]2O)C[C@H]1O)Cc1ccc(Br)cc1)C(C)(C)C | RCMB 002003 | MIC | agar | 7.8 µg/mL |